Compound potency records, mixed from different reports. Data source: NIAID ChemDB in PubChem.

Shared fields: target-level tests; organism: HIV-1; target: Protease; measure: IC50

Rows are shuffled and stem from different studies. An empty or dashed field is not shown. ICn is the concentration giving n% inhibition.

smiles,strain or isolate,method,setting,result
CC(C)COC(=O)[C@H](Cc1ccccc1)NC(=O)C[C@@H](O)C(=O)N[C@@H](Cc1ccccc1)C(=O)OCC(C)C,-,absorbance,-,10 µM
CC(C)[C@H](N)C(=O)N[C@H](C(=O)N[C@@H](Cc1ccccc1)[C@@H](O)C(=O)N[C@@H](Cc1ccccc1)C(=O)N[C@H](C(=O)N[C@H](C(N)=O)C(C)C)C(C)C)C(C)C,-,-,-,0.35 µM
CC[C@H](C)[C@H](NC(=O)OCc1ccccc1)C(=O)N[C@@H](Cc1ccccc1)C(=O)N[C@H]1CC[C@@H](CC(=O)N[C@H](C(=O)OC)C(C)C)[C@@H]1O,-,absorbance,-,12 µM
CC1(C)CC[C@]2(C(=O)OCc3ccccc3)CC[C@]3(C)C(=CC[C@@H]4[C@@]5(C)C[C@@H](OC(=O)c6ccccc6)[C@H](OC(=O)c6ccccc6)C(C)(C)[C@@H]5CC[C@]43C)[C@@H]2C1,-,FRET,-,>1200 µg/mL
CC(C)(C)NC(=O)c1ccccc1SC[C@H](O)[C@H](Cc1ccccc1)NC(=O)[C@@H](NC(=O)c1ccc2ccccc2n1)C(C)(C)C,IIIB,HPLC,-,>0.1 µM
CC(C)C[C@@H](CC[C@@H](Cc1ccccc1)C(=O)N[C@H](C(=O)N[C@H](C(N)=O)C(C)C)C(C)C)NC(=O)[C@@H](NC(=O)[C@@H](N)C(C)C)C(C)C,-,-,-,>10 µM
C[C@H](CCC(=O)O)[C@H]1CC[C@H]2[C@@H]3[C@H](O)C[C@@H]4C[C@H](O)CC[C@]4(C)[C@H]3C[C@H](O)[C@]12C,-,absorbance,-,350 µM
CC(C)C[C@H](NC(=O)[C@H](Cc1ccccc1)NC(=O)CCCCCCCCCCCCCCC(=O)N[C@@H](CC(N)=O)C(=O)N[C@@H](Cc1ccccc1)C(=O)O)C(=O)N[C@@H](Cc1ccccc1)C(N)=O,-,-,-,0.56 µM
CC(C)C[C@H](NC(=O)[C@@H](NC(=O)CCCNC(=O)[C@H](Cc1ccccc1)NC(=O)[C@H](CCC(=O)O)NC(=O)[C@H](Cc1ccccc1)NC[C@H](Cc1ccccc1)NC(=O)OC(C)(C)C)[C@@H](C)O)C(=O)N[C@@H](CC(N)=O)C(=O)N[C@@H](Cc1ccccc1)C(=O)O,-,fluorescence,pH 5.0,0.019 µM
C[C@H]1[C@H](C)CC[C@]2(C(=O)O)CC[C@]3(C)C(=CC[C@@H]4[C@@]5(C)CC[C@H](OC(=O)C(=O)O)C(C)(C)[C@@H]5CC[C@]43C)[C@H]12,-,-,-,7 µM
COC(=O)CN(C)C(=O)CN(C)C(=O)CN(C(=O)CN(Cc1ccccc1)C(=O)C[C@@]1(O)C2C3C4C2[C@@](O)(CC(=O)N(CC(=O)N(CC(=O)N(C)CC(=O)N(C)CC(=O)OC)C(C)C)Cc2ccccc2)C2C1[C@H]3C[C@H]42)C(C)C,-,substrate cleavage,-,6.5 µM
CC1(C)CC[C@]2(C(=O)O)CC[C@]3(C)C(=CC[C@@H]4[C@@]5(C)CC[C@H](O)C(C)(C)[C@@H]5CC[C@]43C)[C@@H]2C1,-,-,-,8 µM
CC(C)(C)NC(=O)[C@@H]1CCCN1C(=O)[C@@H](O)[C@H](Cc1ccccc1)NC(=O)[C@H](CC(N)=O)NC(=O)OCc1ccccc1,-,-,-,0.089 µM
CC(C)[C@H](NC(=O)[C@H](Cc1ccc2ccccc2c1)CS(=O)(=O)C(C)(C)C)C(=O)N[C@H](Cc1ccccc1)P(N)(=O)[C@@H](Cc1ccccc1)NC(=O)[C@@H](NC(=O)[C@H](Cc1cccc2ccccc12)CS(=O)(=O)C(C)(C)C)C(C)C,-,-,-,0.25 µM
CC1(C)CC[C@]2(C(=O)OCc3ccccc3)CC[C@]3(C)C(=CC[C@@H]4[C@@]5(C)C[C@@H](OC(=O)CCCC(=O)O)[C@H](O)C(C)(C)[C@@H]5CC[C@]43C)[C@@H]2C1,-,FRET,-,>1200 µg/mL
COC(=O)[C@@H](NC(=O)C[C@@H]1CC[C@H](NC(=O)[C@H](Cc2ccccc2)NC(=O)OC(C)(C)C)[C@H]1O)C(C)C,-,absorbance,-,>10 µM
CC(C)[C@H](NC(=O)[C@H](CCCN=C(N)N)NC(=O)N[C@@H](Cc1ccccc1)C(=O)O)C(=O)N[C@H](CO)Cc1ccccc1,-,HPLC,-,17.8 µM
CCCCCC(=O)O[C@H]1CC[C@]2(C)[C@H]3CC=C4[C@@H]5CC(C)(C)CC[C@]5(C(=O)O)CC[C@@]4(C)[C@]3(C)CC[C@H]2C1(C)C,-,FRET,-,>1200 µg/mL
[N-]=[N+]=N[C@H]1[C@@H](N)[C@H](OCc2ccccc2)O[C@H](CO)[C@H]1OCc1ccccc1,-,fluorescence,-,>1000 µM
CC(C)[C@H](NC(=O)[C@H](Cc1ccc2ccccc2c1)CS(=O)(=O)C(C)(C)C)C(=O)NCP(N)(=O)CNC(=O)[C@@H](NC(=O)[C@H](Cc1cccc2ccccc12)CS(=O)(=O)C(C)(C)C)C(C)C,-,-,-,0.0055 µM
COC(=O)[C@@H](NC(=O)C[C@H]1CC[C@@H](NC(=O)[C@H](Cc2ccccc2)NC(=O)OC(C)(C)C)[C@@H]1O)C(C)C,-,absorbance,-,>10 µM
CC[C@H](C)[C@H](NC(=O)[C@@H]1CCCN1C(=O)[C@H](O)[C@H](Cc1ccccc1)NC(=O)[C@H](CC(N)=O)NC(=O)CCc1ccccc1)C(=O)N[C@H](C(N)=O)C(C)C,-,-,-,3 µM
CCCCCCCCCCCC(=O)O[C@@H]1C[C@]2(C)[C@H]3CC=C4[C@@H]5CC(C)(C)CC[C@]5(C(=O)OCc5ccccc5)CC[C@@]4(C)[C@]3(C)CC[C@H]2C(C)(C)[C@H]1O,-,FRET,-,>1200 µg/mL
CC(C)[C@H](NC(=O)[C@H](Cc1ccc2ccccc2c1)CS(=O)(=O)C(C)(C)C)C(=O)N[C@@H](Cc1ccccc1)P(=O)(O)[C@H](Cc1ccccc1)NC(=O)[C@@H](NC(=O)[C@H](Cc1cccc2ccccc12)CS(=O)(=O)C(C)(C)C)C(C)C,-,-,-,0.0005 µM
CC(C)(C)OC(=O)N[C@H](CN[C@@H](Cc1ccccc1)C(=O)N[C@@H](CCC(=O)O)C(=O)N[C@@H](Cc1ccccc1)C(N)=O)Cc1ccccc1,-,fluorescence,pH 7.0,1.178 µM
CC[C@H](C)[C@H](NC(=O)[C@@H]1CCCN1C(=O)[C@@H](O)[C@H](Cc1ccccc1)NC(=O)[C@H](CO)NC(=O)Cc1ccccc1)C(=O)N[C@H](C(N)=O)C(C)C,-,-,-,5.041 µM
CC(C)(C)OC(=O)N[C@H]1CCCCNC(=O)CCC(=O)NCCCC[C@@H](C(N)=O)NC(=O)[C@H](Cc2ccccc2)NC(=O)C[C@H](Cc2ccccc2)NC1=O,-,-,-,>10 µM
CC(=O)N[C@@H](CSC(=O)[C@]1([C@@H](O)CC(C)C)NC(=O)[C@H](C)[C@@H]1O)C(=O)O,-,-,-,>100 µM
CCC(=O)O[C@H]1CC[C@]2(C)[C@H]3CC=C4[C@@H]5CC(C)(C)CC[C@]5(C(=O)OCc5ccccc5)CC[C@@]4(C)[C@]3(C)CC[C@H]2C1(C)C,-,FRET,-,>1200 µg/mL
CC1(C)CC[C@]2(C(=O)O)CC[C@]3(C)C(=CCC4[C@@]5(C)CC[C@H](OC(=O)CCCC(=O)O)C(C)(C)C5CC[C@]43C)C2C1,-,-,-,4 µM
CC(C)C[C@H](NC(=O)[C@@H](NC(=O)CCCCCCCCCCCCCCC(=O)N[C@@H](CC(N)=O)C(=O)N[C@@H](Cc1ccccc1)C(=O)O)C(C)O)C(=O)N[C@@H](Cc1cnc[nH]1)C(=O)O,-,-,-,125 µM
CC1(C)CC[C@]2(C(=O)O)CC[C@]3(C)C(=CC[C@@H]4[C@@]5(C)CC[C@H](O)C(C)(C)[C@@H]5CC[C@]43C)[C@@H]2C1,-,absorbance,-,1 µM
C[C@H]1[C@H](C)CC[C@]2(C)CC[C@]3(C)C(=CC[C@@H]4[C@@]5(C)CC[C@H](O)C(C)(C)[C@@H]5CC[C@]43C)[C@H]12,-,-,-,80 µM
C[C@H](CCC(=O)O)[C@H]1CC[C@H]2[C@@H]3[C@H](O)C[C@@H]4C[C@H](O)CC[C@]4(C)[C@H]3CC[C@]12C,-,absorbance,-,40 µM
C=C(C)C1CC[C@]2(C(=O)O)CC[C@]3(C)[C@H](CC[C@@H]4[C@@]5(C)CC[C@H](OC(=O)CCC(=O)O)C(C)(C)[C@@H]5CC[C@]43C)[C@@H]12,-,-,-,6 µM
CC[C@H](C)[C@H](NC(=O)[C@@H]1CCCN1C(=O)[C@@H](O)[C@H](Cc1ccccc1)NC(=O)[C@H](CC(=O)O)NC(=O)[C@H](Cc1ccccc1)NC(=O)[C@@H](N)CO)C(=O)N[C@H](C(N)=O)C(C)C,-,-,-,0.005 µM
CCC(=O)O[C@@H]1C[C@]2(C)[C@H]3CC=C4[C@@H]5CC(C)(C)CC[C@]5(C(=O)O)CC[C@@]4(C)[C@]3(C)CC[C@H]2C(C)(C)[C@H]1OC(=O)CC,-,FRET,-,>1200 µg/mL
CC[C@H](C)[C@H](NC(=O)[C@H](Cc1ccccc1)NC[C@H](Cc1ccccc1)NC(=O)OC(C)(C)C)C(=O)N[C@@H](Cc1ccccc1)C(=O)OC,-,-,-,>10 µM
C[C@H]1[C@H](C)CC[C@]2(C(=O)O)CC[C@]3(C)C(=CC[C@@H]4[C@@]5(C)CC[C@H](O)C(C)(C)[C@@H]5CC[C@]43C)[C@H]12,-,-,-,8 µM
CC(C)N(CC(=O)N(CC(=O)NC[C@]1(O)C2C3C4C2[C@](O)(CC(N)=O)C2C1[C@@H]3C[C@@H]42)Cc1ccccc1)C(=O)CN(C)C(=O)OCc1ccccc1,-,substrate cleavage,-,0.5 µM
COc1cc2c(c(O)c1OC)-c1c(cc3c(c1OC)OCO3)[C@H](OC(C)=O)[C@H](C)[C@H](C)C2,-,HPLC,-,>100 µg/mL
CC(O)[C@H](NC(=O)CCCCCCCCCCCCCCC(=O)N[C@@H](CC(N)=O)C(=O)N[C@@H](Cc1ccccc1)C(=O)O)C(=O)N[C@@H](CCc1ccccc1)C(=O)N[C@@H](Cc1ccccc1)C(N)=O,-,-,-,2.7 µM
CC(C)(C)OC(=O)N[C@H]1CC(=O)NCCNC(=O)C[C@@H](C(N)=O)NC(=O)[C@H](Cc2ccccc2)NCC(O)[C@H](Cc2ccccc2)NC1=O,-,-,-,>10 µM
CC(C)C[C@H](NC(=O)[C@H](CCC(N)=O)NC(=O)CCCCCCCCCCCCCCC(=O)N[C@@H](CC(N)=O)C(=O)N[C@@H](Cc1ccccc1)C(=O)O)C(=O)N[C@@H](Cc1ccccc1)C(N)=O,-,-,-,>5.5 µM
CC(C)CCCC(C)[C@H]1CCC2C3CC[C@H]4C[C@@H](CCC=C(c5cc(Cl)c(OCc6ccc(B(O)O)cc6)c(C(=O)O)c5)c5cc(Cl)c(OCc6ccc(B(O)O)cc6)c(C(=O)O)c5)CC[C@]4(C)C3CC[C@@]21C,-,-,-,0.0011 µM
Cc1ccc(-c2c3c(n([C@@H]4O[C@H](CO)[C@H](O)[C@H](O)[C@H]4O)c(=S)c2C#N)-c2ccccc2C3)cc1,-,-,-,>100 µM
CCCCCCCCCCCC(=O)O[C@H]1CC[C@]2(C)[C@H]3CC=C4[C@@H]5CC(C)(C)CC[C@]5(C(=O)OCc5ccccc5)CC[C@@]4(C)[C@]3(C)CC[C@H]2C1(C)C,-,FRET,-,>1200 µg/mL
CC(=O)O[C@H]1CC[C@]2(C)[C@H]3CC=C4[C@@H]5[C@@H](C)[C@H](C)CC[C@]5(C(=O)O)CC[C@@]4(C)[C@]3(C)CC[C@H]2C1(C)C,-,-,-,13 µM
CC(C)(CC(=O)O)CC(=O)O[C@H]1CC[C@]2(C)[C@H]3CC=C4[C@@H]5CC(C)(C)CC[C@]5(C(=O)OCc5ccccc5)CC[C@@]4(C)[C@]3(C)CC[C@H]2C1(C)C,-,FRET,-,>1200 µg/mL
CC[C@H](C)[C@H](NC(=O)OC(C)(C)C)C(=O)N[C@H]1[C@@H](CC(=O)N[C@H](C(=O)OC)C(C)C)CC[C@@H]1O,-,absorbance,-,>10 µM
COc1cc2c(c(O)c1OC)-c1c(cc3c(c1OC)OCO3)[C@H](OC(=O)/C=C/c1ccccc1)[C@H](C)[C@H](C)C2,-,HPLC,-,50 µg/mL
CC(C)[C@H](NC(=O)[C@H](Cc1ccc2ccccc2c1)CS(=O)(=O)C(C)(C)C)C(=O)NCP(=O)(O)CNC(=O)[C@@H](NC(=O)[C@H](Cc1cccc2ccccc12)CS(=O)(=O)C(C)(C)C)C(C)C,-,-,-,0.0011 µM

For reference, 5 entries again:

COc1cc2c(c(O)c1OC)-c1c(cc3c(c1OC)OCO3)[C@H](OC(=O)/C=C/c1ccccc1)[C@H](C)[C@H](C)C2 ; method: HPLC ; result: 50 µg/mL
CC(C)(C)OC(=O)N[C@H]1CC(=O)NCCNC(=O)C[C@@H](C(N)=O)NC(=O)[C@H](Cc2ccccc2)NCC(O)[C@H](Cc2ccccc2)NC1=O ; result: >10 µM
CC(C)C[C@H](NC(=O)[C@H](Cc1ccccc1)NC(=O)CCCCCCCCCCCCCCC(=O)N[C@@H](CC(N)=O)C(=O)N[C@@H](Cc1ccccc1)C(=O)O)C(=O)N[C@@H](Cc1ccccc1)C(N)=O ; result: 0.56 µM
CC(C)C[C@@H](CC[C@@H](Cc1ccccc1)C(=O)N[C@H](C(=O)N[C@H](C(N)=O)C(C)C)C(C)C)NC(=O)[C@@H](NC(=O)[C@@H](N)C(C)C)C(C)C ; result: >10 µM
CC1(C)CC[C@]2(C(=O)OCc3ccccc3)CC[C@]3(C)C(=CC[C@@H]4[C@@]5(C)C[C@@H](OC(=O)CCCC(=O)O)[C@H](O)C(C)(C)[C@@H]5CC[C@]43C)[C@@H]2C1 ; method: FRET ; result: >1200 µg/mL